Publication PMC11466185, “Mechanisms and efficacy of small molecule latency-promoting agents to inhibit HIV reactivation ex vivo” (JCI Insight, 2024)

System: PBMCs
Format: cell-based, human
Experimental: Next, we evaluated the ability of the candidate LPAs to sustain the inhibitory effects during a prolonged ex vivo culture. To this end, PBMCs were cultured in the presence of individual drugs in DMSO or in DMSO alone as control, activated (anti-CD3/CD28), and harvested after 6 days. […] Ruxolitinib and triptolide caused sustained reductions in initiated HIV transcripts (medians relative to activated DMSO: 27%, P = NS and 1%, P = 0.03, respectively; Figure 4A and Table 3). […] However, we decided to test the drug on day 6 because extra cells were available from some study participants.
For quantification of cell-associated HIV transcripts, PBMCs were harvested either after 24 hours or after 6 days. The cell viabilities were measured by trypan blue staining; then the cells were pelleted by centrifuging at 300g for 6 minutes and stored at –80°C. For quantification of virion-associated HIV RNA, cell culture supernatant was collected from 6 × 10^6 PBMCs that were treated and activated for 6 days as described above. Residual cells and cellular debris were subsequently removed from the supernatant by differential centrifugation (300g for 6 minutes, then 20,000g for 10 minutes), and the supernatant was stored at –80°C.
Figure S4. […] A) After six days, the viability was measured by trypan blue staining and then normalized to the levels of the activated DMSO (% of activated DMSO). […]

SMILES | Cell viability (DMSO αCD3/28 = 100) (5μM, 6 days after αCD3/28 activation, each row one participant) | Cell viability (DMSO αCD3/28 = 100) (human, 6 days, 4 μM)
O=c1c(O)c(-c2ccc(O)c(O)c2)oc2cc(O)cc(O)c12 [quercetin] | 105.41 and 105.3 and 104.6 | –
N#CC[C@H](C1CCCC1)n1cc(-c2ncnc3[nH]ccc23)cn1 [ruxolitinib] | – | 104.7

Several values for one entry are separate records, joined by “and”; a condition that tells them apart may be missing. Equal values may be shown once. Read-outs that look alike come from different tables or passages of the source.
